Data source: PubChem BioAssay AID1259414 (Drosophila RNAi Screening Center, 2018)
Test: 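Fly genes that alter Wolbachia amount inside host cells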 (primary screen). System: Drosophila JW18 cells infected with Wolbachia. Reagent: long dsRNA against Drosophila genes, 0.25 µg dsRNA per well of a 384-well plate. Timing: 5 days. Challenge: cells persistently infected with Wolbachia before knock-down; no added drug. Measurement: 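Automated imaging of bacterial rRNA staining divided by host cell count, reported as plate-normalised robust z-score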. Scale: Wolbachia per cell robust z: higher = more Wolbachia per host cell than the plate typical. Hit rule: 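Hit when robust z is 1.5 or more, or -1.5 or less, in at least two of three replicates; excludes dsRNAs with several or no targets, genes not expressed in JW18 and well A1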.
The deposit covers about 24,000 reagents; below is an unselected part of those with a known target gene and a result. Of all reagents, about 1,210 (5%) were called active. 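Inactive calls also include excluded dsRNAs with several or no targets, genes unexpressed in JW18, and well A1, regardless of score.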 A number with no mark means an inactive call. Names joined by + are all predicted targets of the reagent.

no.	predicted target	amplicon	Wolbachia per cell robust z, rep 1	Wolbachia per cell robust z, rep 2	Wolbachia per cell robust z, rep 3
1	beat-IIb	DRSC13219	0.157	-0.332	0.0695
2	beat-IIb	DRSC14816	-0.717	-1.33	-0.217
3	beat-IIb	DRSC15546	-1.23	-2.02	-3.81
4	Mrtf	DRSC08410	2.3 (active)	-0.521	1.96
5	Mrtf	DRSC23194	0.0366	0.406	0.771
6	Mrtf	DRSC30105	1.34	2.4	1.08
7	Slmap	DRSC03799	-0.186	0.725	0.0587
8	CG15771	DRSC18077	-3.64	0.0347	0.492
9	CG31639	DRSC00910	-0.83	-1.35	-2.67
10	CG31639	DRSC28271	0.408	1.09	0.467
11	GCC185	DRSC15493	-0.759	0.383	-0.17
12	scw	DRSC01711	0.774	0.485	-0.0937
13	scw	DRSC21252	0.0231	-0.585	-0.38
14	CG30487	DRSC05377	0.977	0.857	2.25
15	CG12620	DRSC02177	0.241	0.323	0.809
16	CG12620	DRSC24601	-0.323	0.0362	0.909
17	Rcd4	DRSC02597	-5.22	0.776	0.676
18	CG31601	DRSC03678	1.47	0.622	-1.35
19	CG33475	DRSC22943	0.681	-0.215	0.662
20	Akr1B	DRSC10581	-0.131	-7.67	0.244
21	CG31921	DRSC00013	-0.632	-1.06	-0.191
22	Fa2h	DRSC06608	0.3	0.361	0.0391
23	Fa2h	DRSC06609	-1.18	-0.355	-0.518
24	Drsl1	DRSC22490	0.897	-0.0862	0.697
25	LRP1	DRSC07238	1.29	0.579	0.277
26	rtv + Lint-1	DRSC19541	-1.43	0.594	-0.498
27	Srg1	DRSC14640	-1.1	-0.118	-0.685
28	Srg1	DRSC29445	-0.478	-0.136	-0.982

Records above whose gene name starts with F or f (2):
predicted target	amplicon	Wolbachia per cell robust z, rep 1	Wolbachia per cell robust z, rep 2	Wolbachia per cell robust z, rep 3
Fa2h	DRSC06608	0.3	0.361	0.0391
Fa2h	DRSC06609	-1.18	-0.355	-0.518
